From article PMC10097024, “Cytotoxic and Antibacterial Prenylated Acylphloroglucinols from Hypericum olympicum L” (Plants, 2023)

Assays:
MRSA biofilm = assay: Biofilm assay of MRSA; format: cell-based, Staphylococcus aureus
From the text: The Gram-positive bacterial strains that were examined for susceptibility were: Staphylococcus aureus (ATCC 29213, American Type Cell Culture Collection, Manassas, VA, USA), Staphylococcus aureus—MRSA (NBIMCC 8327-resistant to methicillin and oxacillin, National Bulgarian Collection for Industrial Microorganisms and Cell Cultures, Sofia, Bulgaria), Enterococcus faecalis (ATCC 29212) and Streptococcus pyogenes (SAIMC 10535, Collection of the Stephan Angeloff Institute of Microbiology, Sofia, Bulgaria). The only Gram-negative bacterial strain used was Escherichia coli (ATCC 35218). Bacteria were maintained in Trypticase Soy Broth (TSB, Himedia, India) at 37 °C, aerobic conditions. For the experiments brain heart infusion (BHI) broth (#M210 HiMedia, Mumbai, India) was used for E. faecalis and S. pyogenes and Mueller Hinton broth (MHB, #M0405B) from Thermo Scientific-Oxoid (Basingstoke, UK)—for all other strains.
The bacterial inoculum was prepared as described above for the BMD. […] After that an optimized protocol was applied for the visualization of the biofilm. Firstly, the supernatant was removed, and planktonic cells were removed by washing the wells carefully 3× with 200 μL/well PBS. Then, fixing of the remaining cells was performed by incubation with 200 μL/well methanol for 15 sec at room temperature. The methanol was removed and the plate was dried by air for 5–10 s. Next, 50 μL of 2% Hucker crystal violet was poured into the wells and excess stain was rinsed off by running tap water. […] Then the dye bound to biofilm in the wells was re-solubilized with 160 μL 33% acetic acid and the absorbance of each well was measured at 550 nm with lid (Table S1 in Supplementary Materials). […] MBIC were assessed visually and MBIC50 were calculated by GraphPad Prism software with a mathematical model for a dose–response relationship (variable slope) after normalization of the data and logarithmic transformation of the applied concentrations (X-data).

HEK-293 = assay: MTT cytotoxicity test; format: cell-based, human; settings: SI = IC50(HEK-293)/IC50(x), x = average IC50 of all chemo-sensitive tested tumor cell lines
From the text: (§1) The group of human cell lines used in this study were represented by the tumor cell lines MDA-MB (breast carcinoma), EJ (urinary bladder carcinoma), K-562 (chronic myeloid leukemia), HL-60 (acute pre-myeloid leukemia), HL-60/DOX (multi-drug resistant HL-60 cell line, with over expression of MRP-1) and the non-tumorigenic cell lines HEK-293 (embryonic kidney cells) and EA.hy926 (vascular endothelial cells). EJ, HL60 and EA.hy926 were purchased from American Type Culture Collection (ATCC) (Manassas, Virginia). The other cell lines were purchased from the German Collection of Microorganisms and Cell Cultures (DSMZ GmbH, Braunschweig, Germany). HL-60/DOX cell lines were generated by periodically treating HL-60 cells with anthracyclins. The conditions in which the cell culture flasks were maintained were as follows: 37 °C in an incubator “BB 16-Function Line” Heraeus (Kendro, Hanau, Germany) with 5% CO2 humidified atmosphere. The growth medium was 90% RPMI-1640, supplemented with 10% FBS and 2 mM L-glutamine. MDA-MB-231, EJ, HEK-293 and EA.hy926 cells were maintained as adherent monolayer cultures while all the other (leukemic) cell lines were grown as suspension type cultures. Cells were maintained in log phase: the adherent cell lines were subjected to trypsinization 1–2 times a week and the leukemic cell lines were passaged 2–3 times a week by removing of part of the cellular suspension and substituting it with fresh medium.
(§2) The evaluation of cytotoxic activity was conducted by MTT test as described previously. The median inhibitory concentration (IC50) values which represent the half-maximal concentration values were calculated from sigmoidal concentration–response curves, using non-linear regression analysis (Curve fit, GraphPad Prizm 5.0 software, GraphPad Software Inc., San Diego, CA, USA). The selectivity index was calculated as the ratio of the IC50 of a non-cancerous line (HEK-293 or EA.hy926) and the average IC50 of all chemosensitive tested tumor cell lines (x). Therefore, SI=IC50HEK-293/IC50x . The resistance index (RI) was calculated as the ratio of IC50 of the multi-drug resistant HL-60/DOX cell line and the IC50 of its parent cell line: RI=IC50HL-60/DOX/IC50HL-60 .

HL-60/DOX = assay: MTT cytotoxicity test; format: cell-based, human; settings: RI = IC50(HL-60/DOX)/IC50(HL-60)
From the text: as §1, §2

EA.hy926 = assay: MTT cytotoxicity test; format: cell-based, human; settings: SI = IC50(EA.hy926)/IC50(x), x = average IC50 of all chemo-sensitive tested tumor cell lines
From the text: as §1, §2

Row | Molecule | MBIC as multiple of MIC (MRSA biofilm) | SIHEK-293/x (HEK-293) | RI (HL-60/DOX) | SIEA.hy926/x (EA.hy926)
1 | CC(C)=CCC[C@]1(C)[C@@H](CC=C(C)C)C[C@]2(C)C(=O)C(CC=C(C)C)=C(O)[C@@]1(C(=O)C(C)C)C2=O [Compound 3, hyperpolyphyllirin/hyperibine J] | ½ MIC | 1.73 | 0.12 | 3.21
2 | CC[C@H](C)C(=O)c1c(O)cc(O)cc1OC/C=C(\C)CCC=C(C)C [Compound 2, olympicin A] |  | 1.99 | 0.14 | 3.00
3 | CC(C)=CCC[C@]1(C)[C@@H](CC=C(C)C)C[C@H]2C(=O)[C@]1(C(=O)C(C)C)C(=O)C(CC=C(C)C)=C2O [Compound 5, (1S,5R,7S,8R)-4-hydroxy-1-isobutyryl-8-methyl-3,7-bis(3-methylbut-2-en-1-yl)-8-(4-methylpent-3-en-1-yl)bicyclo[3.3.1]non-3-ene-2,9-dione] | ½ MIC | 0.68 | 1.47 | 7.14
4 | CC(C)=CCC/C(C)=C/COc1cc(O)cc(O)c1C(=O)C(C)C [Compound 1, (E)-1-[2-{(3,7-dimethylocta-2,6-dien-1-yl)oxy}-4,6-dihydroxyphenyl]-2-methylpropan-1-one] |  | 1.02 | 0.34 | 0.46
5 | (1R,5R,7S,8R)-4-hydroxy-5,8-dimethyl-3,7-bis(3-methylbut-2-en-1-yl)-1-(2-methylbutanoyl)-8-(4-methylpent-3-en-1-yl)bicyclo[3.3.1]non-3-ene-2,9-dione [Compound 4] | MIC | 2.39 | 0.55 | 0.35
